Laboratory results reported in patent US20090155270A1, “CASPASE INHIBITORS, […] 3 INHIBITORS, FOR THE TREATMENT OF INFLUENZA” (priority 2003, published 2009).

System: influenza A virus strain fowl plague virus (FPV)
Assay type: cell-based

XIAP was tested, and the “reduction of the influenza virus titer” value was “approx. 50%”.
